Pooled drug test results. Numbers come from NIAID ChemDB, via PubChem.

All rows: enzyme or target tests; species: Toxoplasma gondii

Neighbouring rows are from separate reports.

smiles	strain or isolate	target	read-out	tested at	result
Nc1ccc(S(=O)(=O)Nc2cc(Br)cc(Br)c2)cc1	-	DHPS	Ki	-	3.1 µM
COc1ccnc(OC)n1	RH	Uracil phosphoribosyltransferase	inhibition	2000 µM	<5%
Cc1noc(NS(=O)(=O)c2ccc(N)cc2)c1C	-	DHPS	IC50	-	1150 µM
C1CCC([NH2+]C2CCCCC2)CC1.C1CCC([NH2+]C2CCCCC2)CC1.C1CCC([NH2+]C2CCCCC2)CC1.O=P([O-])([O-])C(Cl)P(=O)([O-])O	-	Pyrophosphate-dependent phosphofructokinase	IC50	-	>2000 µM
NC(=O)c1cnccn1	RH	Uracil phosphoribosyltransferase	IC50	-	>2000 µM
O=c1[nH]c(=S)c2[nH]cnc2[nH]1	RH	Phosphoribosyltransferase	Ki	-	246 µM
Nc1ccc(S(=O)(=O)Nc2nc(-c3ccccc3)cs2)cc1	-	DHPS	IC50	-	430 µM
CN1CNc2[nH]c(=O)[nH]c(=O)c21	RH	Phosphoribosyltransferase	Ki	-	5700 µM
Nc1nc(N)c2nc(-c3ccc(O)cc3)c(-c3ccc(O)cc3)nc2n1	RH	DHFR	IC50	-	0.63 µM
CSc1nncc2[nH]cnc12	RH	Phosphoribosyltransferase	inhibition	900 µM	<10%
c1cnccn1	RH	Uracil phosphoribosyltransferase	IC50	-	>2000 µM
S=c1[nH]c(=S)c2[nH]cnc2[nH]1	RH	Phosphoribosyltransferase	Ki	-	300 µM
O=c1[nH]cc([N+](=O)[O-])c(=O)[nH]1	RH	Uracil phosphoribosyltransferase	IC50	-	>2000 µM
Cc1cc(NS(=O)(=O)c2ccc(N)cc2)no1	-	DHPS	Ki	-	57.3 µM
S=c1nccc(Oc2ccccc2)[nH]1	RH	Uracil phosphoribosyltransferase	IC50	-	>2000 µM
CN(Cc1cnc2nc(N)nc(N)c2n1)c1ccc(C(=O)N[C@H](CCC(=O)O)C(=O)O)cc1F	RH	DHFR	IC50	-	0.0119 µM
CN1CN(C)c2n[nH]nc2C1=O	RH	Phosphoribosyltransferase	inhibition	900 µM	<10%
CC1(C)N=C(N)N=C(N)N1c1ccc(C(=O)O)cc1	RH	DHFR	IC50	-	>52 µM
O=c1[nH]ncc2n[nH]nc12	RH	Phosphoribosyltransferase	inhibition	900 µM	<10%
CC1(C)N=C(N)N=C(N)N1c1cccc(OCc2cccc([N+](=O)[O-])c2)c1	RH	DHFR	IC50	-	0.14 µM
CCOP(=O)(OCC)C(=NNc1ccc([N+](=O)[O-])cc1[N+](=O)[O-])P(=O)(OCC)OCC	-	Pyrophosphate-dependent phosphofructokinase	IC50	-	75 µM
O=c1[nH]cccc1O	RH	Uracil phosphoribosyltransferase	inhibition	2000 µM	<5%
C=C(P(=O)([O-])[O-])P(=O)([O-])[O-].[Na+].[Na+].[Na+].[Na+]	-	Pyrophosphate-dependent phosphofructokinase	IC50	-	195 µM
Nc1nc(=S)c2[nH]cnc2[nH]1	RH	Phosphoribosyltransferase	Ki	-	2 µM
O=C1CCCC(=O)N1	RH	Uracil phosphoribosyltransferase	inhibition	2000 µM	<10%
CC1(C)N=C(N)N=C(N)N1c1cccc(OCCOc2ccc(NC(=O)/C=C/C(=O)O)cc2)c1	RH	DHFR	IC50	-	0.0051 µM
C1CCC([NH2+]C2CCCCC2)CC1.C1CCC([NH2+]C2CCCCC2)CC1.O=C(O)/C(=N\Nc1ccc([N+](=O)[O-])cc1)P(=O)([O-])[O-]	-	Pyrophosphate-dependent phosphofructokinase	IC50	-	>2000 µM
CC1(C)N=C(N)N=C(N)N1c1cccc(OCCCOc2ccc(N)cc2)c1	RH	DHFR	IC50	-	0.03 µM
C1CCC([NH2+]C2CCCCC2)CC1.C1CCC([NH2+]C2CCCCC2)CC1.C1CCC([NH2+]C2CCCCC2)CC1.O=P([O-])([O-])C(F)(Cl)P(=O)([O-])O	-	Pyrophosphate-dependent phosphofructokinase	IC50	-	>2000 µM
O=c1ccn(Cc2ccccc2)c(=O)[nH]1	RH	Uracil phosphoribosyltransferase	inhibition	2000 µM	<5%
COc1cc([N+](=O)[O-])ccc1NN=C(P(=O)([O-])OC)P(=O)(OC)OC.[Na+]	-	Pyrophosphate-dependent phosphofructokinase	IC50	-	220 µM
CCS(=O)(=O)O.Cc1cc(NC(=O)CCc2ccc(N3C(N)=NC(N)=NC3(C)C)cc2)ccc1S(=O)(=O)F	RH	DHFR	IC50	-	0.052 µM

For reference, 2 entries again:

smiles,strain or isolate,target,read-out,tested at,result
CN1CNc2[nH]c(=O)[nH]c(=O)c21,RH,Phosphoribosyltransferase,Ki,-,5700 µM
O=C1CCCC(=O)N1,RH,Uracil phosphoribosyltransferase,inhibition,2000 µM,<10%

Blank or dashed fields: not listed here. ICn: concentration for n% inhibition. Inhibition is in % at the dose shown (toxicity tests: loss of growth or viability).